Measured values from several laboratories, pooled; numbers as filed in NIAID ChemDB.

Common to all: tests in culture; agent: HIV-1; read by: p24; measure: fold resistance

a–b is a range or a potency band.

compound | mutations | cells | strain | value
O=C1Nc2ccc(Cl)c(O)c2[C@@](C#CC2CC2)(C(F)(F)F)N1 | RT-L100I K103N | MT-4 | - | 840
CCN1c2ncc(CCOc3ccc(-c4ccc(C(=O)O)cc4)cc3C)cc2C(=O)N(C)c2cccnc21 | RT-K103N Y181C | C8166 | - | 1
CCN1c2ncc(CCOc3ccc(C(=O)O)c4c3CCN(C(=O)OC(C)(C)C)C4)cc2C(=O)N(C)c2cccnc21 | RT-K103N Y181C | C8166 | - | 1
COC(=O)[C@H](C)NP(=O)(OC[C@@H]1C=C[C@H](n2cc(C)c(=O)[nH]c2=O)O1)Oc1ccc(Br)cc1Cl | RT-Y181C | PBMC | A17 | 31
CCN1c2ncc(CCOc3ccc(C(=O)O)c4c3CCN(C(=O)N(C)C)C4)cc2C(=O)N(C)c2cccnc21 | RT-K103N Y181C | C8166 | - | 1
O=C1Nc2ccc(Cl)c3c2[C@](C(F)(F)F)(C=C(c2ccccc2)O3)N1 | RT-L100I K103N | MT-4 | - | 202.8
CCN1c2ncc(CCOc3ccc(CC(=O)O)c4ccccc34)cc2C(=O)Nc2c(C)cc(Cl)nc21 | RT-K103N Y181C | C8166 | - | 1–10
CC1(C)Oc2ccc3ccc(=O)oc3c2[C@@H](OC(=O)C23CCC(C)(C(=O)O2)C3(C)C)[C@H]1OC(=O)C12CCC(C)(C(=O)O1)C2(C)C | RT-M41L L74V V106A T215Y | MT-4 | RTMDR1 | 77
CCN1c2ncc(CCOc3ccc(C(=O)O)c4c3CCN(C(=O)OC)C4)cc2C(=O)N(C)c2cccnc21 | RT-V106A | C8166 | - | 1–10
COc1c(Cl)ccc2c1[C@@](C#Cc1ccccc1)(C(F)(F)F)NC(=O)N2 | RT-K103N | MT-4 | - | 14.3
CCCCCCCCCCCCCCCCCCOCCOP(=O)(O)CO[C@H](CO)Cn1cnc2c(N)ncnc21 | RT-M184V | MT-2 | - | 0.0925
CC(C)=CCOc1cc(NC(=S)c2ccsc2C)ccc1Cl | RT-V179D | CEM + CEM-SS | NL4-3 | 1
CCN1c2ncc(CCOc3ccc4cc(C(=O)NN)ccc4c3)cc2C(=O)N(C)c2cccnc21 | RT-K103N Y181C | C8166 | - | 1–10
CCN1c2ncc(CCOc3ccc(-c4cc[n+]([O-])cc4)cc3)cc2C(=O)N(C)c2cccnc21 | RT-K103N Y181C | C8166 | - | 1
COC(=O)[C@H](C)NP(=O)(OC[C@@H]1C=C[C@H](n2cc(C)c(=O)[nH]c2=O)O1)Oc1c(OC)cccc1OC | RT-Y181C | PBMC | A17 | 22.8
CCN1c2ncc(CCOc3ccc(C(=O)NS(=O)(=O)c4ccccc4)cc3C)cc2C(=O)N(C)c2cccnc21 | RT-K103N Y181C | C8166 | - | >1
Cc1cc(C)cc(S(=O)(=O)c2c(C(N)=O)[nH]c3c(Cl)cc(Cl)cc23)c1 | RT-K103R | C8166 | IIIB | >83
O=C1Nc2ccc(Cl)cc2[C@@](C#CC2CC2)(C(F)(F)F)N1 | RT-K103N | MT-4 | - | 5
CCN1c2ncc(CCOc3ccc4cc(CC(=O)O)ccc4c3C)cc2C(=O)N(C)c2cccnc21 | RT-K103N Y181C | C8166 | - | 1
Nc1nc(NC2CC2)c2ncn([C@H]3C=C[C@@H](CO)C3)c2n1 | RT-T69SSS L210W T215Y | PBMC | XM-T69SSS | 7.6
CCN1c2ncc(CCOc3cccc4c3ccc[n+]4[O-])cc2C(=O)Nc2c(C)cc(Cl)nc21 | RT-K103N Y181C | C8166 | - | 59.4
CCN1c2ncc(CCOc3ccc(-c4ccc(CC(=O)O)cc4)cc3)cc2C(=O)N(C)c2cccnc21 | RT-K103N Y181C | C8166 | - | >1
Nc1nc(=O)n([C@H]2C=C[C@@H](CO)O2)cc1F | RT-A62V V75I F77C F116Y Q151M | MT-4 | XM-Q151M | 23
CCCCCCCCCCCCCCCCOCCCOP(=O)(O)CO[C@H](CO)Cn1cnc2c(N)ncnc21 | RT-K103N | MT-2 | - | 2.86
CCN1c2ncc(CCOc3ccc(CCC(=O)O)c4c3CCCC4)cc2C(=O)N(C)c2ccc(Cl)nc21 | RT-K103N Y181C | C8166 | - | 1
CCN1c2ncc(CCOc3ccc(-c4ccncc4)cc3)cc2C(=O)N(C)c2cccnc21 | RT-K103N Y181C | C8166 | - | >1
COC(=O)[C@H](C)NP(=O)(OC[C@@H]1C=C[C@H](n2cc(C)c(=O)[nH]c2=O)O1)Oc1ccc(OC)cc1 | RT-Y181C | PBMC | A17 | 30
CCN1c2ncc(CCOc3ccc(-c4cccc(C(=O)O)c4)cc3C)cc2C(=O)N(C)c2cccnc21 | RT-K103N Y181C | C8166 | - | >1
CCN1c2ncc(CCOc3ccc(NS(=O)(=O)C(F)(F)F)c4ccccc34)cc2C(=O)N(C)c2ccc(F)nc21 | RT-K103N Y181C | C8166 | - | 1
CC(C)[C@H](NC(=O)OCc1ccccn1)C(=O)N[C@@H](Cc1ccccc1)[C@@H](O)C[C@H](Cc1ccccc1)NC(=O)OCc1cccnc1 | PR-M46I V82T I84V | MT-4 | NL4-3 | 3.75
CCN1c2ncc(CCOc3ccc(-c4ccc(C(=O)O)cc4)cc3F)cc2C(=O)N(C)c2cccnc21 | RT-K103N Y181C | C8166 | - | >5

Repeating the final 3 entries:

CCN1c2ncc(CCOc3ccc(NS(=O)(=O)C(F)(F)F)c4ccccc34)cc2C(=O)N(C)c2ccc(F)nc21 ; mutations: RT-K103N Y181C ; cells: C8166 ; value: 1
CC(C)[C@H](NC(=O)OCc1ccccn1)C(=O)N[C@@H](Cc1ccccc1)[C@@H](O)C[C@H](Cc1ccccc1)NC(=O)OCc1cccnc1 ; mutations: PR-M46I V82T I84V ; cells: MT-4 ; strain: NL4-3 ; value: 3.75
CCN1c2ncc(CCOc3ccc(-c4ccc(C(=O)O)cc4)cc3F)cc2C(=O)N(C)c2cccnc21 ; mutations: RT-K103N Y181C ; cells: C8166 ; value: >5

An empty or dashed field is not shown. Fold resistance: result on the changed form divided by that on wild type. Neighbouring rows are from separate reports.